# Results: patent publication US9986740B2, “Methods of identifying insect-TRPA1 modulators” (BRANDEIS UNIVERSITY, priority 2010, dated 2018)
# Amino acid sequences for entries named in this document (tags omitted). A change or cut given only in a name is not applied to a line headed by its entry.
# UniProt Q7Z020: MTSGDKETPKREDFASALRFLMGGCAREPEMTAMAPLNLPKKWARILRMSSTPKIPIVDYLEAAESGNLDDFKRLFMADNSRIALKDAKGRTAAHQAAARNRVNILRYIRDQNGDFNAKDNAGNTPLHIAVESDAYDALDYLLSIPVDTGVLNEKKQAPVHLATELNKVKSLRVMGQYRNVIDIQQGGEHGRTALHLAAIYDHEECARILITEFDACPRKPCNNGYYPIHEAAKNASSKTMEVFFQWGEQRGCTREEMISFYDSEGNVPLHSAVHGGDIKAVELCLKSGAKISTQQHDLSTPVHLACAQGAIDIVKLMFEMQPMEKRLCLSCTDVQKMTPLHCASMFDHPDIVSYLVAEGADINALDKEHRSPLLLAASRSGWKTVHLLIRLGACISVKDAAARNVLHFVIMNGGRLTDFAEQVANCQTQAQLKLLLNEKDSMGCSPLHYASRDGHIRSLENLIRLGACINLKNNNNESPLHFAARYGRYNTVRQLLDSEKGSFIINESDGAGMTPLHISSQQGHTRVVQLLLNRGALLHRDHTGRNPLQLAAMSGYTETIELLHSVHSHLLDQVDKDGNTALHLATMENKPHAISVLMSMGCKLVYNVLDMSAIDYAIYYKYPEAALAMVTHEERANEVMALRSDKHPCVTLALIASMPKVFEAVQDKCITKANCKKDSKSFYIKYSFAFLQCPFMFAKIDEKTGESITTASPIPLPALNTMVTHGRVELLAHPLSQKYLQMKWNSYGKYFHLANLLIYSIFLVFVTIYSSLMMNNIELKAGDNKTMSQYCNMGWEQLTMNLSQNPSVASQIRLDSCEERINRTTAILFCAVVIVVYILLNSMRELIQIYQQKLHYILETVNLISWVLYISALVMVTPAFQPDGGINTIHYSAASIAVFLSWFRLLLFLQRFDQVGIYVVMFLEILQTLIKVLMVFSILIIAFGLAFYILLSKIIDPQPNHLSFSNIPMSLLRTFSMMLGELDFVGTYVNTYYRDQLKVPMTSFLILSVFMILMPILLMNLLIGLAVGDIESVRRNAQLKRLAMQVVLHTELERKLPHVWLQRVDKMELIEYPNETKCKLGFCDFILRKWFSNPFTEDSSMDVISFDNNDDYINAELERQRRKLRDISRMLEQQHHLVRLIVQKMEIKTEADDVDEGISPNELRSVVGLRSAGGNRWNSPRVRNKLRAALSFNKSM
# Target: dTRPA1 (Drosophila melanogaster, UniProt Q7Z020)
# Assay: Two-electrode voltage clamping on Xenopus laevis oocytes expressing dTRPA1
# Format: cell-based
# Details: 30 μM, applied after nicotine
compound,measurement,value
O=[As]c1ccccc1 (stereo not shown),Activation of dTRPA1 by cysteine-modifying reagent,activation
